Sequences of proteins named here, by UniProt entry; tags and fusion partners are left off. A change or cut given only in a name is not applied to a line headed by its entry. Residues count along the entry.
UniProt P26663, 1027-1208 limits assumed: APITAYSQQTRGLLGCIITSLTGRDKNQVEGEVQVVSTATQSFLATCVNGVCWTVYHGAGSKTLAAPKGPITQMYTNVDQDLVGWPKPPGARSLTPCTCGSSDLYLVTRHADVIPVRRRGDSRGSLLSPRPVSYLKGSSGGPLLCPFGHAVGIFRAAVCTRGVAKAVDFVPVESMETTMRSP

According to US6867284B1, “Peptide inhibitors of hepatitis C virus NS3 protease” (Istituto di Ricerche di Biologia Molecolare P. Angeletti …, priority 1998, dated 2005):

Biological target: HCV NS3 protease (Hepatitis C virus genotype 1b, UniProt P26663)
Assay: Inhibition of NS3 protease (HPLC cleavage assay, NS3/4A complex with Pep4AK, substrate peptide 4AB)
Assay type: biochemical
Settings: Table 4 indoline keto acids and related; tested form: trifluoroacetate

CC(C)C[C@H](NC(=O)C1(Cc2ccsc2C(=O)O)Cc2ccccc2N1)C(=O)NC(CC(F)F)C(=O)C(=O)O (stereo partly shown)
IC50: 0.7 µM
